The values that follow come from ChEMBL document CHEMBL3217662 (Medchemcomm, 2011).

The structures appear in SMILES notation.

The target of the experiment is Protease (Human immunodeficiency virus 1, UniProt Q9YQ12). Description: Inhibition of HIV1 protease using fluorogenic hexapeptide substrate (2-aminobenzoyl)Thr-Ile-Nle-(p-nitro)Phe-Gln-Arg by fluorimeter.
The term Ki denotes the equilibrium dissociation constant of an inhibitor or competing ligand from its target. Low readings indicate a stronger hold on the target, high ones a looser hold on the target. For the molecule `CC(C)(C)NC(=O)[C@@H]1CN(Cc2cccnc2)CCN1C[C@@H](O)C[C@@H](Cc1ccccc1)C(=O)N[C@H]1c2ccccc2C[C@H]1O`, affinity was put at a Ki of 0.571 nM.

As for `CC(C)(C)NC(=O)[C@@H]1C[C@@H]2CCCC[C@@H]2CN1C[C@@H](O)[C@H](Cc1ccccc1)NC(=O)[C@H](CC(N)=O)NC(=O)c1ccc2ccccc2n1`, the affinity corresponds to a Ki of 0.221 nM. Take `Cc1cccc(C)c1OCC(=O)N[C@@H](Cc1ccccc1)[C@@H](O)C[C@H](Cc1ccccc1)NC(=O)[C@H](C(C)C)N1CCCNC1=O` [LOPINAVIR]: the Ki worked out at 0.0371 nM.
